{"source": "PubChem BioAssay AID1259414 (Drosophila RNAi Screening Center, 2018)", "aim": "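Fly genes that alter Wolbachia amount inside host cells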 (primary screen)", "cell system": "Drosophila JW18 cells infected with Wolbachia", "knock-down reagent": "long dsRNA against Drosophila genes, 0.25 µg dsRNA per well of a 384-well plate", "time to read-out": "5 days", "treatment": "cells persistently infected with Wolbachia before knock-down; no added drug", "read-out": "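Automated imaging of bacterial rRNA staining divided by host cell count, reported as plate-normalised robust z-score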", "scale": "Wolbachia per cell robust z: higher = more Wolbachia per host cell than the plate typical", "hit rule": "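Hit when robust z is 1.5 or more, or -1.5 or less, in at least two of three replicates; excludes dsRNAs with several or no targets, genes not expressed in JW18 and well A1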", "note": "The screen tested about 24,000 reagents; shown is an unselected part of those that have a named target and a result. Over the whole deposit, about 1,210 (5%) were called active. 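Inactive calls also include excluded dsRNAs with several or no targets, genes unexpressed in JW18, and well A1, regardless of score.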 A plus sign joins genes that one reagent is predicted to hit."}
{"predicted target":"CG31204","dsRNA":"DRSC15106","Wolbachia per cell robust z, rep 1":-3.84,"Wolbachia per cell robust z, rep 2":-2.94,"Wolbachia per cell robust z, rep 3":1.33,"Call":"inactive"}
{"predicted target":"CG31204","dsRNA":"DRSC28757","Wolbachia per cell robust z, rep 1":0.267,"Wolbachia per cell robust z, rep 2":0.476,"Wolbachia per cell robust z, rep 3":-0.756,"Call":"inactive"}
{"predicted target":"sima","dsRNA":"DRSC13964","Wolbachia per cell robust z, rep 1":0.412,"Wolbachia per cell robust z, rep 2":-1.31,"Wolbachia per cell robust z, rep 3":-0.678,"Call":"inactive"}
{"predicted target":"sima","dsRNA":"DRSC23203","Wolbachia per cell robust z, rep 1":0.0806,"Wolbachia per cell robust z, rep 2":0.619,"Wolbachia per cell robust z, rep 3":-0.952,"Call":"inactive"}
{"predicted target":"sima","dsRNA":"DRSC28794","Wolbachia per cell robust z, rep 1":-0.131,"Wolbachia per cell robust z, rep 2":0.907,"Wolbachia per cell robust z, rep 3":-0.919,"Call":"inactive"}
{"predicted target":"sima","dsRNA":"DRSC40800","Wolbachia per cell robust z, rep 1":0.647,"Wolbachia per cell robust z, rep 2":0.891,"Wolbachia per cell robust z, rep 3":-0.248,"Call":"inactive"}
{"predicted target":"CG1910","dsRNA":"DRSC15400","Wolbachia per cell robust z, rep 1":0.0427,"Wolbachia per cell robust z, rep 2":-1.03,"Wolbachia per cell robust z, rep 3":-0.361,"Call":"inactive"}
{"predicted target":"CG1910","dsRNA":"DRSC39143","Wolbachia per cell robust z, rep 1":-0.481,"Wolbachia per cell robust z, rep 2":0.47,"Wolbachia per cell robust z, rep 3":-0.462,"Call":"inactive"}
{"predicted target":"Gadd45","dsRNA":"DRSC06033","Wolbachia per cell robust z, rep 1":0.207,"Wolbachia per cell robust z, rep 2":1.15,"Wolbachia per cell robust z, rep 3":0.489,"Call":"inactive"}
{"predicted target":"His2B:CG17949 + His2B:CG33868 + His2B:CG33876 + 20 more","dsRNA":"DRSC21265","Wolbachia per cell robust z, rep 1":4.2,"Wolbachia per cell robust z, rep 2":1.81,"Wolbachia per cell robust z, rep 3":2.01,"Call":"inactive"}

Taken from above:
Entry of CG31204 [DRSC15106] under “Wolbachia per cell robust z, rep 1”: -3.84
His2B:CG17949 + His2B:CG33868 + His2B:CG33876 + 20 more [DRSC21265], Call = inactive

The listing continues:
{"predicted target":"Cyp313b1","dsRNA":"DRSC16629","Wolbachia per cell robust z, rep 1":-1.43,"Wolbachia per cell robust z, rep 2":-12.8,"Wolbachia per cell robust z, rep 3":0.0331,"Call":"inactive"}
{"predicted target":"EndoGI","dsRNA":"DRSC01964","Wolbachia per cell robust z, rep 1":1.12,"Wolbachia per cell robust z, rep 2":0.86,"Wolbachia per cell robust z, rep 3":0.697,"Call":"inactive"}
{"predicted target":"grsm","dsRNA":"DRSC14165","Wolbachia per cell robust z, rep 1":0.571,"Wolbachia per cell robust z, rep 2":-0.22,"Wolbachia per cell robust z, rep 3":0.464,"Call":"inactive"}
{"predicted target":"grsm","dsRNA":"DRSC14843","Wolbachia per cell robust z, rep 1":0.292,"Wolbachia per cell robust z, rep 2":1.45,"Wolbachia per cell robust z, rep 3":0.881,"Call":"inactive"}
{"predicted target":"Rdh1","dsRNA":"DRSC06812","Wolbachia per cell robust z, rep 1":1.15,"Wolbachia per cell robust z, rep 2":-0.468,"Wolbachia per cell robust z, rep 3":-0.545,"Call":"inactive"}
{"predicted target":"Cse1","dsRNA":"DRSC03287","Wolbachia per cell robust z, rep 1":1.18,"Wolbachia per cell robust z, rep 2":0.881,"Wolbachia per cell robust z, rep 3":0.651,"Call":"inactive"}
{"predicted target":"Cse1","dsRNA":"DRSC26857","Wolbachia per cell robust z, rep 1":1.14,"Wolbachia per cell robust z, rep 2":0.63,"Wolbachia per cell robust z, rep 3":3.11,"Call":"inactive"}
